Measurements reported in PubChem BioAssay AID624099 (ICCB-Longwood, 2012).

- Purpose: 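Host factors E2 relies on to silence an HPV18 LCR reporter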 (primary screen)
- Cell system: human C33A cervical carcinoma cells (HPV-negative) stably expressing BPV1 E2 and an HPV18 LCR luciferase reporter
- Knock-down reagent: siRNA pool against human genes, 40 nM
- Duration: 72 h
- Measurement: 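Per-well luciferase luminescence, z-scored on each plate against the plate mean and SD with control wells left out, then averaged across three replicate plates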
- Scale: mean z-score and z-score: higher = stronger reporter signal, weaker E2 silencing
- Hit rule: 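Hit if mean z-score reaches 2 and two or more of three replicate z-scores also reach 2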
The deposit covers about 21,000 reagents; shown is a random part of them. 497 of them (2.4%) count as active. 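Higher z means weaker E2 silencing; only reporter increases were scored, and knock-downs that hurt cell survival may mask genuine repressor factors.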 Entries without a mark were called inactive. Reagents against one gene are numbered here.

| gene knocked down | reagent no. | mean z-score | z-score, replicate A | z-score, replicate B | z-score, replicate C |
| --- | --- | --- | --- | --- | --- |
| SPRY3 | 1 | 0.28 | 0.36 | 0.15 | 0.35 |
| SHISA6 | 1 | 0.28 | 0.38 | 0.47 | 0 |
| SHISA6 | 2 | 0.35 | 0.18 | 0.93 | -0.06 |
| CFAP74 | 1 | -0.18 | 0.06 | -0.3 | -0.29 |
| CFAP74 | 2 | -0.17 | 0.08 | -0.44 | -0.14 |
| TMEM229A | 1 | 0.73 | 0.33 | 1.01 | 0.83 |
| GET1P1 | 1 | -0.37 | -0.48 | -0.5 | -0.12 |
| ATP5MF | 1 | -0.89 | -1.13 | -0.64 | -0.9 |
| MYOZ1 | 1 | 0.54 | 0.19 | 0.07 | 1.37 |
| USP44 | 1 | -1.08 | -0.98 | -1.06 | -1.19 |
| ZNF774 | 1 | 0.3 | 0.64 | 0.26 | -0.01 |
| IARS1 | 1 | -1.41 | -1.08 | -1.62 | -1.54 |
| TAPT1-AS1 | 1 | -0.76 | -0.4 | -1.12 | -0.75 |
| PLXDC1 | 1 | -0.64 | -0.68 | -0.41 | -0.82 |
| MRPL11 | 1 | -0.73 | -0.85 | -0.68 | -0.67 |
| CFAP73 | 1 | 0.72 | 0.91 | 1.11 | 0.15 |
| IGSF6 | 1 | -0.37 | -0.1 | -0.48 | -0.52 |
| RSL24D1 | 1 | -0.18 | -0.15 | 0.22 | -0.63 |
| MDH1 | 1 | 0.37 | 0.07 | 0.67 | 0.38 |
| LOC387869 | 1 | 0.23 | 0.43 | 0.37 | -0.11 |
| LOC388949 (retired record) | 1 | 0.51 | 0.94 | 0.2 | 0.4 |
| CD207 | 1 | 2.39 (active) | 2.75 | 2.17 | 2.26 |
| DHX15 | 1 | -0.97 | -1.02 | -0.84 | -1.03 |
